Data source: PubChem BioAssay AID504761 (Drosophila RNAi Screening Center, 2011)

- Assay: 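Insect host genes that dengue virus relies on to spread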 (primary screen)
- Cell system: D.Mel-2 cells from Drosophila
- Reagent: long dsRNA against Drosophila genes
- Treatment: infection with dengue virus type 2; dose and infection time not stated
- Detection: 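Cells stained for dengue envelope protein and imaged; percent of infected cells per well on duplicate plates, ranked by infection, with stained nuclei counted for cell number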
- Reading the numbers: infection score: higher = more virus-infected cells; cell count: higher = more cells in the well
- Hit rule: 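Low infection ranks in the two replicates (chance level up to 0.065) followed by a retest with a 1.5-fold or larger significant decrease, p below 0.05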
- Calls: active = confirmed: knock-down lowers infection; inactive = not picked or not confirmed
The screen tested about 22,000 reagents; this is an unselected part of those that have a named target and a result. In the full data, 116 (0.52%) were called active. 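Calls depend on retest data that are not deposited; infection was ranked per plate without normalising between plates; the unit of the infection score is not given.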 Raw values vary from plate to plate and are shown uncorrected. Reagents against one gene are numbered here. Not stated in the record: the amount of reagent, the time to read-out.

Gene	reagent	infection score, replicate 1	infection score, replicate 2	cell count, replicate 1	cell count, replicate 2	Call
Rheb	1	4.06	13	6899	5511	inactive
Taf11	1	8.78	2.56	6461	6176	inactive
beta-PheRS	1	2.59	4.65	6226	5951	inactive
beta-PheRS	2	15.1	17.7	4734	4508	inactive
ich	1	2.05	5.76	6529	6826	inactive
ich	2	12.6	11.9	829	5458	inactive
CG10669	1	6.72	8.53	5881	4478	inactive
Akh	1	4.22	3.53	5502	5616	inactive
Akh	2	0.42	11.4	471	5978	inactive
RabX2	1	3.01	8.92	6785	6649	inactive
Cipc	1	3.06	0.98	6608	6214	inactive
Cipc	2	4.69	3.34	6721	958	inactive
CG3581	1	3.54	3.83	6473	6351	inactive

The list goes on; the last 2 above are carried over.
Gene	reagent	infection score, replicate 1	infection score, replicate 2	cell count, replicate 1	cell count, replicate 2	Call
Cipc	2	4.69	3.34	6721	958	inactive
CG3581	1	3.54	3.83	6473	6351	inactive
Reepl1	1	1.89	15.7	6251	6215	inactive
Reepl1	2	1.52	2.34	5208	6275	inactive
CR31541 (retired record)	1	1.28	3.67	6887	6177	inactive
CR31541 (retired record)	2	0.65	1.06	6008	6042	inactive
CG42500	1	8.87	5.03	5703	6044	inactive
CG5199	1	5.24	2.84	5880	5960	inactive
zda	1	6.07	6.91	6769	6313	inactive
zda	2	2.09	7.39	6807	6316	inactive
CG14868	1	1.6	2.86	6760	6012	inactive
CG14868	2	9.27	9.7	6709	6802	inactive
